A mixed list of measured activities; the numbers were collected in NIAID ChemDB.

Common to all: growth or infection tests; agent: Candida albicans; endpoint: MIC

Neighbouring rows are from separate reports. Blank or dashed fields: not listed here.

CN(Cc1ccc(S(=O)(=O)Nc2ccccc2)cc1)CC(O)(Cn1cncn1)c1ccc(F)cc1F ; strain or isolate: CAAL-74 ; read by: resazurin ; result: 0.06 µg/mL
C[C@@H](NC(=O)N[C@@H](CCCCN)CC(N)=O)NC(=O)[C@H]1CCCC[C@@H]1NC(=O)C[C@H](CCCCN)NC(=O)N[C@H](C)NC(=O)[C@H]1CCCC[C@@H]1NC(=O)C[C@H](CCCCN)NC(=O)N[C@H](C)NC(=O)[C@H]1CCCC[C@@H]1NC(=O)C[C@@H](N)Cc1ccc(O)cc1 ; strain or isolate: SC5314 ; read by: XTT / broth dilution ; result: 128 µg/mL
O=[N+]([O-])c1nn2cc(-c3ccc(Br)cc3)nc2s1 ; read by: agar diffusion ; result: >75 µg/mL
Nn1c(SCC(O)(Cn2cncn2)c2ccc(Cl)cc2Cl)nnc1-c1ccc(F)cc1 ; strain or isolate: ATCC 18804 ; read by: broth dilution ; result: >64 µg/mL
Clc1ccc(COC(Cn2ccnc2)c2ccc(Cl)cc2Cl)c(Cl)c1 ; read by: agar diffusion / agar ; result: 110.8 µg/mL
Cc1ccc(-c2cn3nc(Cl)sc3n2)cc1 ; read by: agar diffusion ; result: >75 µg/mL
Cc1cccc(-c2cc(-c3cc4cc(F)ccc4oc3=O)nc(NS(=O)(=O)c3ccccc3)c2C#N)c1 ; strain or isolate: MTCC 227 ; read by: turbidity ; result: 1000 µg/mL
CCC(C)CC(C)CCCCCCCCC(=O)N[C@H]1C[C@@H](O)[C@H](NCCN)NC(=O)[C@@H]2[C@@H](O)CCN2C(=O)[C@H]([C@H](O)CCN)NC(=O)[C@H]([C@H](O)[C@@H](O)c2ccc(O)cc2)NC(=O)[C@@H]2C[C@@H](O)CN2C(=O)[C@H]([C@@H](C)O)NC1=O ; strain or isolate: C693 ; read by: broth dilution ; result: 0.06 µg/mL
C[C@@H](NC(=O)N[C@@H](CCCCN)CC(N)=O)NC(=O)[C@H]1CCCC[C@@H]1N ; strain or isolate: SC5314 ; read by: XTT / broth dilution ; result: >128 µg/mL
COc1ccc(-c2cn3nc(Cl)sc3n2)cc1 ; read by: agar diffusion ; result: 75 µg/mL
Fc1ccc(CN(CCn2cncn2)CCn2cncn2)c(F)c1 ; strain or isolate: ATCC 76615 ; read by: visual reading / absorbance ; result: 64 µg/mL
CCC(=O)O/N=C/c1ccc(OP2(Oc3ccc(/C=N/OC(=O)CC)cc3OC)=NP(Oc3ccc(/C=N/OC(=O)CC)cc3OC)(Oc3ccc(/C=N/OC(=O)CC)cc3OC)=NP(Oc3ccc(/C=N/OC(=O)CC)cc3OC)(Oc3ccc(/C=N/OC(=O)CC)cc3OC)=N2)c(OC)c1 ; read by: agar diffusion / agar ; result: >100 µg/mL
CCCCC1C(=O)N(c2ccccc2)N(c2ccccc2)C1=O ; strain or isolate: ATCC 90028 ; read by: resazurin ; result: >100 µM
NC[C@H]1O[C@H](O[C@H]2[C@H](O)[C@@H](O[C@H]3O[C@H](CO)[C@@H](O)[C@H](N)[C@H]3O)[C@H](N)C[C@@H]2N)[C@H](O)[C@@H](O)[C@@H]1O ; read by: MTT / broth dilution ; result: >50 µg/mL
CN(Cc1ccc(S(=O)(=O)N2CCOCC2)cc1)CC(O)(Cn1cncn1)c1ccc(F)cc1F ; strain or isolate: 98 001 ; read by: resazurin ; result: 0.018 µg/mL
NCCCC[C@@H](CC(N)=O)NC(=O)N[C@H](Cc1ccccc1)NC(=O)[C@H]1CCCC[C@@H]1N ; strain or isolate: SC5314 ; read by: XTT / broth dilution ; result: 8 µg/mL
COc1cc(/C=N/O)ccc1OP1(Oc2ccc(/C=N/OC(=O)c3ccccc3)cc2OC)=NP(Oc2ccc(/C=N/OC(=O)c3ccccc3)cc2OC)(Oc2ccc(/C=N/OC(=O)c3ccccc3)cc2OC)=NP(Oc2ccc(/C=N/OC(=O)c3ccccc3)cc2OC)(Oc2ccc(/C=N/OC(=O)c3ccccc3)cc2OC)=N1 ; read by: agar diffusion / agar ; result: 75 µg/mL
CCN1CCN(c2nc(NC(=S)N3CCN(Cc4ccc(OC)c(OC)c4OC)CC3)nc3ccccc23)CC1 ; strain or isolate: MTCC 183 ; read by: agar / visual reading ; result: 400 µg/mL
C=CCO/N=C/c1ccc(OP2(Oc3ccc(/C=N/OC=C)cc3OC)=NP(Oc3ccc(/C=N/OCC=C)cc3OC)(Oc3ccc(/C=N/OCC=C)cc3OC)=NP(Oc3ccc(/C=N/OCC=C)cc3OC)(Oc3ccc(/C=N/OCC=C)cc3OC)=N2)c(OC)c1 ; read by: agar diffusion / agar ; result: >100 µg/mL
Clc1nn2cc(-c3ccc(Br)cc3)nc2s1 ; read by: agar diffusion ; result: 50 µg/mL
C[n+]1c2c(Cl)cccc2cc2sc3ccccc3c21 ; strain or isolate: ATCC 90028 ; read by: resazurin ; result: >20 µg/mL
Nn1c(SCC(O)(Cn2cncn2)c2ccc(F)cc2F)nnc1-c1cccc(Br)c1 ; strain or isolate: IRFC 192 ; read by: broth dilution ; result: >64 µg/mL
CC1CC(=O)N(c2ccc(Cl)cc2)C1=O ; strain or isolate: ATCC 10231 ; read by: broth dilution / turbidity ; result: 250 µg/mL
Nn1c(SCC(O)(Cn2cncn2)c2ccc(Cl)cc2Cl)nnc1-c1ccc(O)cc1 ; strain or isolate: IRFC 36 ; read by: broth dilution ; result: 64 µg/mL
Cc1ccccc1NC(=S)NNC(=O)c1cc2ccccc2cn1 ; strain or isolate: ATCC 10231 ; read by: agar ; result: 50 µg/mL
COc1ccc(Br)cc1/C=N/NC(=O)Cc1ccccc1F ; read by: MTT ; result: >150 µM
CC(C)S(=O)(=O)N1CCN(c2cnn(-c3cc(F)cc(F)c3)c(=O)c2OC2CCC(F)C2)CC1 ; strain or isolate: C693 ; read by: broth dilution ; result: 0.06 µg/mL
Nn1c(SCC(O)(Cn2cncn2)c2ccc(Cl)cc2Cl)nnc1-c1ccc(Cl)cc1Cl ; strain or isolate: PTCC 6027 ; read by: broth dilution ; result: 8 µg/mL
C[C@@H]1C(=O)N(c2ccccc2)C(=O)[C@@H]1C ; strain or isolate: ATCC 10231 ; read by: broth dilution / turbidity ; result: 31.3 µg/mL
COc1cc(C=O)ccc1OP1(Oc2ccc(C=O)cc2OC)=NP(Oc2ccc(C=O)cc2OC)(Oc2ccc(C=O)cc2OC)=NP(Oc2ccc(C=O)cc2OC)(Oc2ccc(C=O)cc2OC)=N1 ; read by: agar diffusion / agar ; result: >100 µg/mL
Nn1c(SCC(O)(Cn2cncn2)c2ccc(F)cc2F)nnc1-c1ccc(O)cc1 ; strain or isolate: PTCC 6027 ; read by: broth dilution ; result: >64 µg/mL
CCN1CCN(c2nc(Nc3ccc(C(=O)/C=C/c4ccc(OC)c(OC)c4)cc3)nc3ccccc23)CC1 ; strain or isolate: MTCC 183 ; read by: agar / visual reading ; result: 100 µg/mL
COC(=O)/C=C/c1ccc(OC)cc1 ; strain or isolate: ATCC 10231 ; read by: broth dilution / resazurin ; result: 500 µg/mL
C[C@H]1[C@H](O)[C@@H](C)/C=C/C=C/C=C/C=C/C=C/C=C/C=C/[C@H](O[C@@H]2O[C@H](C)[C@@H](O)[C@H](N)[C@@H]2O)C[C@@H]2O[C@](O)(C[C@@H](O)C[C@@H](O)CC[C@H](O)[C@@H](O)C[C@@H](O)CC(=O)O[C@H]1C)C[C@H](O)[C@H]2C(=O)O ; strain or isolate: ATCC 10231 ; read by: broth dilution / absorbance ; result: 9.77 µg/mL
OC[C@H]1OC(Oc2cc(/C=C/c3ccc(O)cc3)cc(OC3O[C@H](CO)[C@H](O)[C@@H](O)[C@@H]3O)c2)[C@@H](O)[C@H](O)[C@H]1O ; strain or isolate: ATCC 9002 ; read by: XTT / absorbance ; result: 128 µg/mL
CO/N=C/c1ccc(OP2(Oc3ccc(/C=N/OC)cc3OC)=NP(Oc3ccc(/C=N/OC)cc3OC)(Oc3ccc(/C=N/OC)cc3OC)=NP(Oc3ccc(/C=N/OC)cc3OC)(Oc3ccc(/C=N/OC)cc3OC)=N2)c(OC)c1 ; read by: agar diffusion / agar ; result: >100 µg/mL
CCC(C)[C@H](N)CC(=O)N[C@@H](CC)NC(=O)N[C@@H](CCCCN)CC(=O)N[C@H](CC(=O)N[C@@H](CC)NC(=O)N[C@@H](CCCCN)CC(=O)N[C@H](CC(=O)N[C@@H](CC)NC(=O)N[C@@H](CCCCN)CC(N)=O)C(C)CC)C(C)CC ; strain or isolate: SC5314 ; read by: XTT / broth dilution ; result: >128 µg/mL
COc1ccccc1NC(=S)NNC(=O)c1cc2ccccc2cn1 ; strain or isolate: ATCC 90028 ; read by: agar ; result: 25 µg/mL
CCN1CCN(c2nc(NN=C3SCC(=O)N3c3cccc(Cl)c3)nc3ccccc23)CC1 ; strain or isolate: MTCC 183 ; read by: agar / visual reading ; result: 400 µg/mL
N=C(N)c1ccc(OCCCCCCOc2ccc(C(=N)N)cc2)cc1 ; strain or isolate: Ca4 ; read by: agar diffusion / agar ; result: 22 µg/mL
S=C(Nc1ccc(Cl)cc1)Nc1nc(N2CCN(c3ccccc3)CC2)c2ccccc2n1 ; strain or isolate: MTCC 183 ; read by: agar / visual reading ; result: 6.25 µg/mL
CC(C)(O)c1cn(-c2ccc(Cl)cc2)nn1 ; strain or isolate: URM 4386 ; read by: broth dilution ; result: 128 µg/mL
Nn1c(SCC(O)(Cn2cncn2)c2ccc(Cl)cc2Cl)nnc1-c1ccccc1 ; strain or isolate: PTCC 6027 ; read by: broth dilution ; result: 4 µg/mL
O=C(NNC(=S)Nc1ccc(F)cc1)c1cc2ccccc2[nH]1 ; strain or isolate: ATCC 10231 ; read by: agar ; result: >400 µg/mL
N#Cc1c(-c2ccccc2)cc(-c2cc3cc(F)ccc3oc2=O)nc1NS(=O)(=O)c1ccccc1 ; strain or isolate: MTCC 227 ; read by: turbidity ; result: 1000 µg/mL
COc1ccc(C(=O)O/N=C/c2ccc(OP3(Oc4ccc(/C=N/OC(=O)c5ccc(OC)cc5)cc4OC)=NP(Oc4ccc(/C=N/OC(=O)c5ccc(OC)cc5)cc4OC)(Oc4ccc(/C=N/OC(=O)c5ccc(OC)cc5)cc4OC)=NP(Oc4ccc(/C=N/OC(=O)c5ccc(OC)cc5)cc4OC)(Oc4ccc(/C=N/OC(=O)c5ccc(OC)cc5)cc4OC)=N3)c(OC)c2)cc1 ; read by: agar diffusion / agar ; result: >100 µg/mL
CC1C(=O)N(Cc2ccccc2)C(=O)C1C ; strain or isolate: ATCC 10231 ; read by: broth dilution / turbidity ; result: 125 µg/mL
O=C(NNC(=S)Nc1ccc(F)cc1)c1cccs1 ; strain or isolate: ATCC 90028 ; read by: agar ; result: 200 µg/mL
C[C@@H]1CC(=O)N(Cc2ccccc2)C1=O ; strain or isolate: ATCC 10231 ; read by: broth dilution / turbidity ; result: 15.6 µg/mL
N#Cc1c(-c2ccc(F)cc2)cc(-c2cc3cc(F)ccc3oc2=O)nc1NS(=O)(=O)c1ccccc1 ; strain or isolate: MTCC 227 ; read by: turbidity ; result: 500 µg/mL
C[C@H]1[C@H](O)[C@@H](C)/C=C/C=C/C=C/C=C/C=C/C=C/C=C/[C@H](O[C@@H]2O[C@H](C)[C@@H](O)[C@H](N)[C@@H]2O)C[C@@H]2O[C@](O)(C[C@@H](O)C[C@@H](O)CC[C@H](O)[C@@H](O)C[C@@H](O)CC(=O)O[C@H]1C)C[C@H](O)[C@H]2C(=O)O ; strain or isolate: ATCC 10231 ; read by: absorbance ; result: 1 µg/mL
COc1ccc(Br)cc1/C=N/NC(=O)Cc1ccc(C)cc1 ; read by: MTT ; result: >150 µM
O=C(N/N=C/c1cc(Br)cc(Br)c1O)c1ccccc1F ; read by: MTT / broth dilution ; result: >50 µg/mL
CCCCCCCC/C=C\CCCCCCCC(=O)N[C@H](C(=O)N1C[C@H](C)C[C@H]1C(=O)N[C@H](C(=O)N[C@@H](CCO)C(=O)N[C@@H](C)C=O)C(C)C)[C@@H](C)O ; strain or isolate: MY1055 ; read by: broth dilution / visual reading ; result: 2 µg/mL
CCN1CCN(c2nc(NN=C3SCC(=O)N3c3ccccc3F)nc3ccccc23)CC1 ; strain or isolate: MTCC 183 ; read by: agar / visual reading ; result: 3.12 µg/mL
Nn1c(SCC(O)(Cn2cncn2)c2ccc(F)cc2F)nnc1-c1ccncc1 ; strain or isolate: PTCC 6027 ; read by: broth dilution ; result: >64 µg/mL
COc1ccc2sc3cc4ccccc4[n+](C)c3c2c1 ; strain or isolate: ATCC 90028 ; read by: resazurin ; result: >20 µg/mL
CC(C)c1ccc(S(=O)(=O)Nc2ccc(CN(C)CC(O)(Cn3cncn3)c3ccc(F)cc3F)cc2)cc1 ; strain or isolate: 98 001 ; read by: resazurin ; result: 0.023 µg/mL
COc1cc(/C=C/C(=O)CC(=O)/C=C/c2ccc(O)c(OC)c2)ccc1O ; strain or isolate: 20 strains ; read by: broth dilution / visual reading ; result: 100 µg/mL
O=c1[nH]cnc2c(-c3ccc(Br)cc3)n[nH]c12 ; strain or isolate: ATCC 10231 ; read by: agar diffusion / agar ; result: 250 µg/mL
CC(C)c1ccc(NS(=O)(=O)c2ccc(CN(C)CC(O)(Cn3cncn3)c3ccc(F)cc3F)cc2)cc1 ; strain or isolate: 98 001 ; read by: resazurin ; result: 0.03 µg/mL
COc1ccc(-c2cc(-c3cc4cc(F)ccc4oc3=O)nc(NS(=O)(=O)c3ccccc3)c2C#N)cc1 ; strain or isolate: MTCC 227 ; read by: turbidity ; result: 500 µg/mL

A second listing of 4 rows from above:

structure,strain or isolate,read by,result
CC1CC(=O)N(c2ccc(Cl)cc2)C1=O,ATCC 10231,broth dilution / turbidity,250 µg/mL
COc1ccc(-c2cn3nc(Cl)sc3n2)cc1,,agar diffusion,75 µg/mL
CCCCC1C(=O)N(c2ccccc2)N(c2ccccc2)C1=O,ATCC 90028,resazurin,>100 µM
CC(C)c1ccc(NS(=O)(=O)c2ccc(CN(C)CC(O)(Cn3cncn3)c3ccc(F)cc3F)cc2)cc1,98 001,resazurin,0.03 µg/mL